Measured values from several laboratories, pooled; numbers as filed in NIAID ChemDB.

Shared fields: whole-cell or culture tests; agent: Mycobacterium avium complex; endpoint: MIC

a–b is a range or a potency band. Rows are shuffled and stem from different studies.

smiles | strain or isolate | result
CC(=O)NC[C@H]1CN(c2ccc(-c3ccncc3)cc2)C(=O)O1 | 5 isolates | 10–16 µg/mL
CO/C(=N\N=C\c1ccc(OC)c(F)c1)c1ccncc1 | 12592 PI | >5 µg/mL
CCN1CCN(c2cc(=O)c3nc4c(oc3c2)c2c(=O)c3c(O)c(C)c5c(c34)=C(O)[C@@](C)(O/C=C/[C@H](OC)[C@@H](C)[C@@H](OC(C)=O)[C@H](C)[C@H](O)[C@H](C)[C@@H](O)[C@@H](C)/C=C/C=C(/C)C(=O)N2)O5)CC1 | 31F093T | 0.07 µg/mL
CCCC(=O)O[C@H]1[C@H](C)[C@@H](O[C@@H]2O[C@H](C)C[C@H](N(C)C)[C@H]2O)C(C)(O)C[C@@H](C)/C(=N\OCCCOc2ccccc2)[C@H](C)[C@@H](O)[C@](C)(O)[C@@H](CC)OC(=O)[C@@H]1C | 20096 (clarithromycin-resistant) | 12.5 µg/mL
COc1cccc(SCc2cnc3nc(N)nc(N)c3c2C)c1 | NJ3404 | ≤0.13 µg/mL
CO/C(=N\N=C\c1ccc(Cl)cc1Cl)c1ccncc1 | 12592 PI | >20 µg/mL
CC[C@H]1OC(=O)[C@H](C)[C@@H](O[C@H]2C[C@@](C)(OC)[C@@H](OC(C)=O)[C@H](C)O2)[C@H](C)[C@@H](O[C@@H]2O[C@H](C)C[C@H](N(C)C)[C@H]2OC(=O)NNCCOc2ccccc2)C(C)(O)C[C@@H](C)/C(=N\OCCCC2CCCCC2)[C@H](C)[C@@H](O)[C@]1(C)O | 20039 (clarithromycin-susceptible) | 0.78 µg/mL
CO/C(=N\N=C\c1cc(OC)ccc1OC)c1ccncc1 | 12592 PI | >20 µg/mL
CO[C@H]1/C=C/O[C@@]2(C)Oc3c(C)c(=O)c4c(O)c(c5oc6cccc(O[Si](C)(C)C(C)(C)C)c6nc5c4c3C2=O)NC(=O)/C(C)=C\C=C\[C@H](C)[C@H](O)[C@@H](C)[C@@H](O)[C@@H](C)[C@H](OC(C)=O)[C@@H]1C | 31F093T | 5 µg/mL
CCN(CC)CNC(=O)c1cnccn1 | ATCC49601 | 128 µg/mL
CCCCNC(=O)OCCN=c1ssc2ccccc12 | AN1 | 2 µg/mL
CO/C(=N\N=C\c1cccc(Cl)c1)c1ccncc1 | 12592 PI | >10 µg/mL
O=C(N1CCC(CN=c2cc3n(-c4ccc(Cl)cc4)c4ccccc4nc-3cc2Nc2ccc(Cl)cc2)CC1)N1CC1 | 101 | 16 µg/mL
CC[C@H]1OC(=O)[C@H](C)[C@@H](O[C@H]2C[C@@](C)(OC)[C@@H](O)[C@H](C)O2)[C@H](C)[C@@H](O[C@@H]2O[C@H](C)C[C@H](N(C)C)[C@H]2O)[C@](C)(O)C[C@@H](C)/C(=N\OCOCCOC)[C@H](C)[C@@H](O)[C@]1(C)O | Isolate 89-0733 | 2 µg/mL
CCCCCCCCOC1OC([C@H](CO)OC2O[C@@H](C(O)CO)[C@H](O)[C@H]2O)[C@H](O)[C@H]1O | NJ211 | >128 µg/mL
COc1ccc(C)c(NCc2cnc3nc(N)nc(N)c3c2C)c1 | NJ3404 | ≤0.13 µg/mL
CN(CNC(=O)c1cnccn1)Cc1ccccc1 | 101 | 128 µg/mL
CC[C@H]1OC(=O)[C@H](C)[C@@H](O[C@H]2C[C@@](C)(OC)[C@@H](O)[C@H](C)O2)[C@H](C)[C@@H](O[C@@H]2O[C@H](C)C[C@H](N(C)C)[C@H]2O)[C@](C)(OC)C[C@@H](C)C(=O)[C@H](C)[C@@H](O)[C@]1(C)O | N-444 | 2 µg/mL
CCCCCCCCO[C@@H]1O[C@@H](C(CO[C@@H]2O[C@@H](C(COC(C)=O)OC(C)=O)[C@H](OC(C)=O)[C@H]2OC(C)=O)OC)[C@H](OC)[C@H]1OC | NJ168 | >128 µg/mL
COCCN1CCN(c2cc(=O)c3nc4c(oc3c2)c2c(=O)c3c(O)c(C)c5c(c34)=C(O)[C@@](C)(O/C=C/[C@H](OC)[C@@H](C)[C@@H](OC(C)=O)[C@H](C)[C@H](O)[C@H](C)[C@@H](O)[C@@H](C)/C=C/C=C(/C)C(=O)N2)O5)CC1 | 31F093T | 0.15 µg/mL
O=C(NCN1CCOCC1)c1cnccn1 | ATCC49601 | >128 µg/mL
OCCn1sc2ccccc2c1=S | ATCC 15769 | 8 µg/mL
CO[C@H]1/C=C/O[C@@]2(C)Oc3c(C)c(O)c4c(=O)c(c5oc6cc(N(C)CCc7ccccn7)cc(=O)c6nc5c4c3=C2O)NC(=O)/C(C)=C\C=C\[C@H](C)[C@H](O)[C@@H](C)[C@@H](O)[C@@H](C)[C@H](OC(C)=O)[C@@H]1C | 31F093T | 1.25 µg/mL
CO/C(=N\N=C\c1cccc(C(C)(F)F)c1)c1ccncc1 | 12592 PI | >5 µg/mL
CCCCN(CCCC)CNC(=O)c1cnccn1 | 101 | >128 µg/mL
CC[C@H]1OC(=O)[C@H](C)[C@@H](O[C@H]2C[C@@](C)(OC)[C@@H](OC(C)=O)[C@H](C)O2)[C@H](C)[C@@H](O[C@@H]2O[C@H](C)C[C@H](N(C)C)[C@H]2OC(=O)NN(C)C)C(C)(O)C[C@@H](C)/C(=N\OCCCC2CCCCC2)[C@H](C)[C@@H](O)[C@]1(C)O | 20039 (clarithromycin-susceptible) | 1.56 µg/mL
CO[C@H]1/C=C/O[C@@]2(C)Oc3c(C)c(O)c4c(=O)c(c5oc6cc(N7CCC7)cc(=O)c6nc5c4c3=C2O)NC(=O)/C(C)=C\C=C\[C@H](C)[C@H](O)[C@@H](C)[C@@H](O)[C@@H](C)[C@H](OC(C)=O)[C@@H]1C | 31F093T | 0.15 µg/mL
COCc1c(CNc2cc(OC)c(OC)c(OC)c2)cnc2nc(N)nc(N)c12 | NJ168 | >13 µg/mL
CCN(CC)CNC(=O)c1cnc(N(CC)CC)cn1 | 101 | >128 µg/mL
Cc1c(CN2CCSCC2)cc(-c2ccccc2F)n1-c1cccc2ccccc12 | 103317 | 2 µg/mL
CCCCN(CC)CNC(=O)c1cnccn1 | 101 | 128 µg/mL
CCCCNC(=O)OCCn1sc2ccccc2c1=S | AN2 | 4 µg/mL
CO[C@H]1/C=C/O[C@@]2(C)Oc3c(C)c(O)c4c(=O)c(c5oc6cc(N7CCN(C)CC7)cc(=O)c6nc5c4c3=C2O)NC(=O)/C(C)=C\C=C\[C@H](C)[C@H](O)[C@@H](C)[C@@H](O)[C@@H](C)[C@H](OC(C)=O)[C@@H]1C | 31F093T | 0.035 µg/mL
CO/C(=N\N=C\c1ccc(OC)c(OC)c1)c1ccncc1 | 12592 PI | >20 µg/mL
CC(C)N=C(N)/N=C(\N)NOCCCOc1cc(Cl)c(Cl)cc1Cl | W7547 | 32 µg/mL
O=C(NCN1CCCC1)c1cnccn1 | ATCC49601 | >128 µg/mL
C/C(=N\NC(=O)c1ccncc1)c1ccccc1F | 12592 PI | >5 µg/mL
Cc1c(CN2CCSCC2)cc(-c2ccccc2F)n1-c1ccccc1F | 103317 | >16 µg/mL
COc1ccc(C(F)(F)F)cc1N(C)Cc1cnc2nc(N)nc(N)c2c1C | NJ3404 | ≤0.13 µg/mL
C/C(=N\NC(=O)c1ccncc1)c1cccc(Cl)c1 | 12592 PI | >20 µg/mL
CC(C)NC(=O)N1CCC(CN=c2cc3n(-c4ccc(Cl)cc4)c4ccccc4nc-3cc2Nc2ccc(Cl)cc2)CC1 | 109 | ≥16 µg/mL
CCNC(=O)OCCN=c1ssc2ccccc12 | ATCC 15769 | 4 µg/mL
CCCCN(C)CNC(=O)c1cnccn1 | 101 | 128 µg/mL
CCCCCCCCOC1O[C@@H](C(O)COC2O[C@@H](C(O)CO)[C@H](O)[C@H]2O)[C@H](O)[C@H]1O | NJ3404 | >128 µg/mL
COc1cccc2c1[n+]([O-])c1cccc(O)c1[n+]2[O-] | 101 | 8 µg/mL
CC1(C)N=C(N)N=C(N)N1OCCCOc1cc(Cl)c(Cl)cc1Cl | DW3 | 0.5 µg/mL
CCCCCCCCNNC(=O)O[C@H]1[C@H](O[C@@H]2[C@@H](C)[C@H](O[C@H]3C[C@@](C)(OC)[C@@H](OC(C)=O)[C@H](C)O3)[C@@H](C)C(=O)O[C@H](CC)[C@@](C)(O)[C@H](O)[C@@H](C)/C(=N/OCCCC3CCCCC3)[C@H](C)CC2(C)O)O[C@H](C)C[C@@H]1N(C)C | 20039 (clarithromycin-susceptible) | 6.25 µg/mL
CCNC(=O)OCCn1sc2ccccc2c1=O | AN3 | 16 µg/mL
Cc1c(CN2CCN(C)CC2)cc(-c2ccc(Cl)cc2)n1-c1ccc(Cl)cc1 | 103317 | 0.4 µg/mL